Assay results reported in article PMC7251119, “Structural basis for effector protein recognition by the Dot/Icm Type IVB coupling protein complex” (2020).

How the values were obtained:
[1] = target: (His)10-MBP-DotL(656-783)–IcmSW–LvgA (Legionella pneumophila) (UniProt Q5ZYC6); test: BLI
[2] = target: PieA; test: bio-layer interferometry; conditions: parent: 0.23 ± 0.023
[3] = target: (His)10-MBP-DotL(656-783)–IcmSW–LvgA(I153E) (Legionella pneumophila) (UniProt Q5ZYC6); test: BLI

| Substance | kon [1] | also measured |
| --- | --- | --- |
| VpdB(11-590) T473A (domain or fragment) | 5140 M⁻¹ s⁻¹ and 4350 M⁻¹ s⁻¹ and 4750 M⁻¹ s⁻¹ | – |
| (His)10-MBP-DotL(656-783)–IcmSW–LvgA (from UniProt Q5ZYC6;Q5ZYD0;Q5ZS31;Q5ZY48) LvgA:I153E | – | Kd [2]: 2950 nM |
| VpdB(11-590) F483A (domain or fragment) | 5710 M⁻¹ s⁻¹ and 5020 M⁻¹ s⁻¹ and 5370 M⁻¹ s⁻¹ | – |
| VpdB(11-590) L480A (domain or fragment) | 1110 M⁻¹ s⁻¹ and 882 M⁻¹ s⁻¹ and 996 M⁻¹ s⁻¹ | fold increase of KD against VpdB(11-590) [1]: 14 times |
| VpdB(11-590) K470A (domain or fragment) | 6070 M⁻¹ s⁻¹ and 7540 M⁻¹ s⁻¹ and 6800 M⁻¹ s⁻¹ | – |
| VpdB(11-590) K484A (domain or fragment) | 2020 M⁻¹ s⁻¹ and 1940 M⁻¹ s⁻¹ and 1980 M⁻¹ s⁻¹ | fold increase of KD against VpdB(11-590) [1]: 9 times |
| SidH(1830-2200;L2195A) (domain or fragment) | 401 M⁻¹ s⁻¹ and 504 M⁻¹ s⁻¹ and 452 M⁻¹ s⁻¹ | – |
| VpdB(11-590) (domain or fragment) | 56800 1/(M s) and 68400 1/(M s) (2×) and 64600 1/(M s) | – |
| PieA (natural protein) | – | fold increase of KD against the wild-type complex [3]: 13 fold; kon [3]: 4230 M⁻¹ s⁻¹ and 3050 M⁻¹ s⁻¹ and 3640 M⁻¹ s⁻¹ |
| SidH(1830-2200;F2191A) (domain or fragment) | 683 M⁻¹ s⁻¹ and 303 M⁻¹ s⁻¹ and 493 M⁻¹ s⁻¹ | – |

Several values for one entry are separate records, joined by “and”; a condition that tells them apart may be missing. Identical values can stand only once.
